Tested on: NAMEC cells transformed with Ras
Assay: Xenograft of Ras-transformed cells into NOD/SCID mouse mammary fat pads
Format: in vivo
Conditions: NAMEC cells pre-treated with cholera toxin, NOD/SCID mice

cholera toxin
micrometastatic foci seeded in the lungs compared to untreated NAMEC cells: complete loss
overall primary tumor size, treated versus untreated NAMEC cells: similar

Reference: patent US10398672B2, “Methods and compositions for targeting cancer stem cells” (Whitehead Institute for Biomedical Research, priority 2014, dated 2019)
